From patent publication US20140294925A1 (priority 2013, published 2014) come the findings set out here.

This test concerns multidrug-resistant C. difficile ATCC BAA1382 (MDR-CD).

Consider ramoplanin, for which the “MIC (comb.)” value was 0.0125 µg/mL and the MIC for ramoplanin worked out at 0.0125 µg/mL.
